Results of unrelated studies side by side (data: NIAID ChemDB).

All rows: whole-cell or culture tests; organism: Mycobacterium tuberculosis

Conditions beyond the fields shown may differ between rows. An empty or dashed field is not shown. MIC bound: limit read from a one-dose screen. A number after MIC or MFC names an inhibition level or a share of isolates. ECn: concentration that inhibits the pathogen or its effect by n%. Inhibition is in % at the dose shown (toxicity tests: loss of growth or viability).

SMILES,strain or isolate,setting,method,measure,mutations,cells,dose,result
CC[C@@H](CO)NCCN[C@@H](CC)CO,MDR4,,broth dilution / resazurin,MIC,,,,16 µg/mL
CN1CCN(Cc2ccccc2NC(=O)c2ccc(-c3ccccc3)cc2)CC1,103471,,,MIC,,,,>16 µg/mL
CC(=O)c1ccc(C2=CC(=O)c3ccccc3C2=O)s1,H37Rv,,resazurin,MIC90,,,,>6.25 µg/mL
Nc1ccc(S(=O)(=O)Nc2cc(F)cc(F)c2)cc1,H37Rv,,BACTEC,MIC bound,,,,≤128 µg/mL
CC(C)COc1ccc(NC(=S)Nc2ccc(-c3ccccn3)cc2)cc1,H37RV (INH-R),,,MIC,,,,>50 µg/mL
CCCc1cc(=O)oc2c3c(cc(OC(C)C)c12)O[C@H](C)[C@H](C)[C@@H]3O,H37Ra,,,MBC,,,,64 µg/mL
COc1ccc2[nH]c3c(c2c1)CCNC3CC(C)CCC=C(C)C,H37Rv,,resazurin,MIC bound,,,,>6.25 µg/mL
Brc1ccc(-n2nnnc2SSc2nnnn2-c2ccc(Br)cc2)cc1,H37Rv,,,MIC,,,,250 µM
NP(N)(=O)c1ccc(Cl)cc1,H37Rv,,resazurin,inhibition,,,6.25 µg/mL,-21%
COc1ccc(/C=C2/NC(=S)NC2=O)cc1OC,H37Rv,,BACTEC,EC50,,,,>6.25 µg/mL
C=C1C(=O)O[C@@H]2C[C@@]3(C)CCC=C(C)[C@@H]3C[C@H]12,H37Rv,,,MIC,,,,128 µg/mL
CC(C)(C)c1cn(CC(Oc2ccc(Cl)cc2)c2ccc(Cl)cc2Cl)nn1,H37Rv,,GFP / reporter gene,MIC,,,,>256 µg/mL
O=C1NC(=S)N/C1=C/c1ccc2ccccc2c1,H37Rv,,BACTEC,EC50,,,,<6.25 µg/mL
NC(=Nc1ccc(S(=O)(=O)Nc2cnc3ccccc3n2)cc1)/N=C(\N)Nc1ccc(Br)cc1,H37Rv,,,MIC,,VERO,,3.13 µg/mL
O=C(O)CCN1c2ccccc2Sc2ccccc21,H37Rv,,resazurin,MIC90,,,,>32 µg/mL
CCCc1cc(=O)oc2c(C(=O)CC)c(OC)cc(O)c12,H37Ra,,,MIC,,,,>128 µg/mL
C=C1C(=O)O[C@@H]2C[C@@]3(C)CCC[C@H](C)C3=C[C@H]12,H37Rv,,,MIC,,,,32 µg/mL
O=C1NC(=S)NC1=C1CCCCC1,H37Rv,,BACTEC,EC50,,,,>6.25 µg/mL
CC(=O)c1c(C2=CC(=O)c3ccccc3C2=O)[nH]c2ccccc12,H37Rv,,resazurin,MIC90,,,,>6.25 µg/mL
C[C@H](O)[C@H]1C(=O)N2C(C(=O)O)=C(S[C@@H]3CN[C@H](C(=O)Nc4cccc(C(=O)O)c4)C3)[C@H](C)[C@H]12,H37Rv,,luminescence,MIC50,,THP-1,,29.56 µM
C[C@@H]1CN(c2c(F)c(N)c3c(=O)c(C(=O)O)cn(C4CC4)c3c2F)C[C@H](C)N1,H37Rv,,,MIC,,,,0.25 µg/mL
N#Cc1ccc(-c2ccc(OCC(=O)O)cc2CN2CCN(c3ccccc3C#N)CC2)cn1,H37Rv (ATCC 27294),,broth dilution,MIC,,,,32 µg/mL
CCCc1cc(=O)oc2c(C(=O)CC)c(OC(C)C)cc(O)c12,H37Ra,,,MIC,,,,>128 µg/mL
NNC(=O)c1ccncc1,,,broth dilution,MIC80,Bedaquiline-resistant I66M,,,0.2 µM
Cc1c(C(=O)C/C(=N\NC(=O)c2ccccc2)C(=O)Nc2ccc(Cl)cc2)[n+](=O)c2ccccc2n1[O-],H37Rv,,BACTEC,MIC bound,,,,>12.5 µg/mL
Cc1cc(C)c(-n2nnnc2SSc2nnnn2-c2c(C)cc(C)cc2C)c(C)c1,H37Rv,,,MIC,,,,>1000 µM
CCCC=C1c2ccccc2Sc2ccccc21,H37Rv,,resazurin,MIC90,,,,>32 µg/mL
COc1ccc(-c2ccc(OCC(=O)O)cc2CN2CCN(c3cccc(C)n3)CC2)cc1,H37Rv (ATCC 27294),,broth dilution,MIC,,,,>64 µg/mL
Brc1cncnc1-c1ccc(-c2ccccc2)s1,H37Rv,,broth dilution,MIC,,,,1.5 µg/mL
COc1cc([C@@](O)(CCN(C)C)[C@@H](c2cc(-c3ccc(F)cc3)cnc2OC)c2cccc(OC)c2F)cc(OC)n1,H37Rv,,resazurin,MIC90,,,,13.67 µM
NNC(=O)c1ccncc1,PA-824-resistant H37Rv,,resazurin,MIC,PA-824-resistant,,,0.05 µg/mL
CC1=CC(=O)c2cc(C)ccc2C1=O,H37Rv,,resazurin,MIC90,,,,>6.25 µg/mL
COc1cc(C(O)(CCN(C)C)C(c2cc(-c3ccc(F)cc3)cnc2OC)c2cccc(OC)c2F)cc(OC)n1,H37Rv,,resazurin,MIC90,,,,4.3 µM
COc1ccccc1/C=C1\N=C(c2ccccc2)OC1=O,H37Rv,,BACTEC,inhibition,,,12.5 µg/mL,88%
O=C1C=CC(=O)c2c1cccc2-c1ccccc1,H37Rv,,resazurin,MIC90,,,,>6.25 µg/mL
C[C@@H](O)[C@H]1C(=O)N2C(C(=O)O)=C([C@H]3CCCO3)S[C@H]12,H37Rv,,luminescence,MIC90,,THP-1,,12.35 µM
CCCc1cc(=O)oc2c3c(cc(OC)c12)O[C@H](C)[C@H](C)[C@@H]3O,H37Ra,,,MIC,,,,>128 µg/mL
COc1ccc2cc1-c1cc(ccc1O)C[C@H]1c3cc4c(cc3CCN1C)Oc1c(OC)cc3c(c1O4)[C@@H](C2)N(C)CC3,H37Rv-ETA-R ATCC 35830,,resazurin,MIC,,,,3.1 µg/mL
O=C(Nc1ccccc1Cn1ccnc1)c1ccc(-c2ccccc2)cc1,103471,,,MIC,,,,>16 µg/mL
COCCCN1c2ccccc2Sc2ccccc21,H37Rv,,resazurin,MIC90,,,,>32 µg/mL
COc1ccc2cc1-c1cc(cc(Br)c1O)C[C@H]1c3cc4c(cc3CCN1C)Oc1c(OC)cc3c(c1O4)[C@H](C2)N(C)CC3,H37Rv-PZA-R ATCC 35828,,resazurin,MIC,,,,3.1 µg/mL
CN1CCN(Cc2ccccc2NC(=O)/C=C/c2ccccc2)CC1,103471,,,MIC,,,,>16 µg/mL
CC(=O)c1ccc(C2=CC(=O)c3ccccc3C2=O)n1C,H37Rv,,resazurin,MIC90,,,,3.13 µg/mL
COc1cc([C@@](O)(CCN(C)C)[C@@H](c2cc(-c3ccccc3)cnc2OC)c2cccc(OC)c2F)cc(OC)n1,H37Rv,,resazurin,MIC90,,,,10.5 µM
C[C@@H]1[C@@H](C)NCCN1C(=S)S,H37Rv,,BACTEC,inhibition,,,12.5 µg/mL,14%
Cc1cc(-c2cc3c(cc2F)c(=O)c(C(=O)O)cn3C2CC2)cc(C)n1,483-8,,,MIC,,,,2 µg/mL
Cc1ccc(C)c(/C=C2/NC(=S)NC2=O)c1,H37Rv,,BACTEC,inhibition,,,6.25 µg/mL,52%
Fc1ccc(-n2nnnc2SSc2nnnn2-c2ccc(F)cc2)cc1,H37Rv,,,MIC,,,,250 µM
NC(=S)N/N=C/c1cc(Cl)c2nc(-c3ccccc3)ccc2c1,H37Rv,,BACTEC,MIC,,,,0.4 µg/mL
CC1COc2c(N3CCN(C)CC3)c(F)cc3c(=O)c(C(=O)O)cn1c23,H37Rv,,,MIC,,,,0.707 µg/mL
S=C(SCc1nc(-c2ccc(Cl)cc2)no1)N1CCSCC1,H37Rv,,BACTEC,inhibition,,,128 µg/mL,97%
CN1CCN(Cc2cccc(NC(=O)c3ccc(Cl)cc3)c2)CC1,103471,,,MIC,,,,>16 µg/mL
CCCc1cc(=O)oc2c(C(=O)CC)c(OC(C)=O)c3c(c12)OC(C)(C)CC3,H37Ra,,,MIC,,,,>128 µg/mL
N#Cc1ncc(C(Cl)(Cl)Cl)nc1Cl,KM-R,,,MIC,,,,3.1 µg/mL
O=C1NC(=S)N/C1=C/c1cccc(Cl)c1Cl,H37Rv,,BACTEC,EC50,,,,>6.25 µg/mL
CC(/C=N/Nc1ccc(C(=O)O)cc1)=N\NC(=O)CC#N,H37Rv,,BACTEC,inhibition,,,12.5 µg/mL,-14%
CCCc1cc(=O)oc2c(C(=O)CC)c(OCC)c3c(c12)OC(C)(C)CC3,H37Ra,,,MIC,,,,>128 µg/mL
O=C(O)Cn1cc(I)c(=O)c(I)c1,H37Rv,,resazurin,inhibition,,,6.25 µg/mL,46%
O=C1NC(=S)N/C1=C/c1ccc(F)cc1,H37Rv,,BACTEC,inhibition,,,6.25 µg/mL,75%
COc1nc2ccc(Br)cc2cc1[C@@H](c1ccccc1)[C@@](O)(CCN(C)C)c1cccc2ccccc12,35822,,broth dilution,MIC80,Isoniazid-resistant,,,<2 µM
CCCc1cc(=O)oc2c(C(=O)CC)c(OCOC)c3c(c12)OC(C)(C)CC3,H37Ra,,,MIC,,,,>128 µg/mL
COc1cc([C@](O)(CCN(C)C)[C@@H](c2cc(-c3ccccc3)cnc2OC)c2cccc(OC)c2F)cc(OC)n1,H37Rv,,resazurin,MIC90,,,,2.54 µM
CC(C)O/N=C/c1cc(NC(=S)OC(C)C)ccc1Cl,H37Rv,,BACTEC,inhibition,,,12.5 µg/mL,93%
Cc1ccccc1OCCSc1nnc(C(C)NC(=O)c2ccccc2C(F)(F)F)n1C,H37Rv (ATCC 27294),,broth dilution,MIC,,,,>32 µg/mL
OCCc1cn(CC(Oc2ccc(OC(F)(F)F)cc2)c2ccc(Cl)cc2Cl)nn1,H37Rv,,GFP / reporter gene,MIC,,,,>64 µg/mL
CCN(CC)c1cc2oc3cc(N)cc(=N)c-3nc2cc1C,EMB-R,,,MIC,,,,0.8 µg/mL
CC(NC(=O)c1ccccc1C(F)(F)F)c1nnc(SCc2ccc(F)cc2)n1Cc1cccnc1,H37Rv (ATCC 27294),7 d,broth dilution,MIC,,,,>64 µg/mL
NC[C@H]1O[C@H](O[C@H]2[C@H](O)[C@@H](O[C@H]3O[C@H](CO)[C@@H](O)[C@H](N)[C@H]3O)[C@H](N)C[C@@H]2N)[C@H](O)[C@@H](O)[C@@H]1O,H2,,,MIC,,,,1 µg/mL
O=[N+]([O-])c1ccc(-c2cn3nc(-c4ccccc4)c(-c4ccccc4)nc3n2)cc1,H37Rv,,BACTEC,inhibition,,,12.5 µg/mL,2%
CC1COc2c(N3CCN(C)CC3)c(F)cc3c(=O)c(C(=O)O)cn1c23,,,broth dilution,MIC80,Bedaquiline-resistant A63P,,,0.7 µM
CCCCCCCC1(N=[N+]=[N-])C(=O)c2ccccc2N(C)C1=O,H37Rv,,BACTEC,inhibition,,,12.5 µg/mL,17%
CC(=O)c1csc(C2=CC(=O)c3ccccc3C2=O)c1,H37Rv,,resazurin,MIC90,,,,>6.25 µg/mL
CCOC(=O)C1=c2[nH]c(O)c(C(=O)OCC)c2=NC1=O,H37Rv,,BACTEC,inhibition,,,12.5 µg/mL,-12%
Cc1ccc2c(c1)C(=O)C=CC2=O,H37Rv,,resazurin,MIC90,,,,3.13 µg/mL
C=C1C(=O)O[C@@H]2C[C@@]3(C)CCCC(C)=C3C[C@H]12,H37Rv,,,MIC,,,,32 µg/mL
CC(=O)Oc1ccccc1C(=O)Nc1ncc([N+](=O)[O-])s1,ND spoligotype 4,,visual reading,MIC,,,,17.3 µg/mL
O=C1NC(=O)C(=O)NC1=O,H37Rv,,BACTEC,inhibition,,,12.5 µg/mL,3%
O=C(O)COc1ccc(-c2cccnc2)c(CN2CCN(c3ccccn3)CC2)c1,H37Rv (ATCC 27294),,broth dilution,MIC,,,,32 µg/mL
C[C@]1(COc2ccc(N3CCC(Oc4ccc(OC(F)(F)F)cc4)CC3)cc2)Cn2cc([N+](=O)[O-])nc2O1,H37Rv,,MTT,MIC,,,,0.01 µM
O=C1NC(=S)N/C1=C/c1ccc(Br)cc1,H37Rv,,BACTEC,EC50,,,,<6.25 µg/mL
Cc1cc2ccc[n+](C)c2c2ncccc12,H37Rv,,BACTEC,inhibition,,,12.5 µg/mL,26%
NC(N)=NC[C@H]1C[C@@H](C(=O)O)C[C@@H]1N=C(N)N,TMC 124 (kurono),,,MIC,,,,1.56 µg/mL
NC(=[SH+])[N-]/N=C/c1cc(-c2cccc(N)c2)ccn1.[Cl][Cu],H37Rv,,BACTEC,inhibition,,,12.5 µg/mL,45%
O=C1NC(=S)N/C1=C/c1ccccc1Cl,H37Rv,,BACTEC,EC50,,,,>6.25 µg/mL
C(=C\c1cncnc1-c1ccc(-c2cccs2)s1)/c1ccc(-c2ccccc2)cc1,H37Rv,,broth dilution,MIC,,,,1.5 µg/mL
CCC(C)C(NC=O)C(=O)N[C@@H]1C(=O)N[C@H](C(C)C)C(=O)N[C@@H](C(C)C)C(=O)N2CCC[C@@H]2C(=O)N[C@H](CC(C)C)C(=O)N2CCC[C@@H]2C(=O)OC1C,H37Rv,,agar,MIC,,,,4 µg/mL

6 of the rows above, restated:

{"SMILES": "CC(C)(C)c1cn(CC(Oc2ccc(Cl)cc2)c2ccc(Cl)cc2Cl)nn1", "strain or isolate": "H37Rv", "method": "GFP / reporter gene", "measure": "MIC", "result": ">256 µg/mL"}
{"SMILES": "CCCCCCCC1(N=[N+]=[N-])C(=O)c2ccccc2N(C)C1=O", "strain or isolate": "H37Rv", "method": "BACTEC", "measure": "inhibition", "dose": "12.5 µg/mL", "result": "17%"}
{"SMILES": "Cc1cc(C)c(-n2nnnc2SSc2nnnn2-c2c(C)cc(C)cc2C)c(C)c1", "strain or isolate": "H37Rv", "measure": "MIC", "result": ">1000 µM"}
{"SMILES": "C(=C\\c1cncnc1-c1ccc(-c2cccs2)s1)/c1ccc(-c2ccccc2)cc1", "strain or isolate": "H37Rv", "method": "broth dilution", "measure": "MIC", "result": "1.5 µg/mL"}
{"SMILES": "CCC(C)C(NC=O)C(=O)N[C@@H]1C(=O)N[C@H](C(C)C)C(=O)N[C@@H](C(C)C)C(=O)N2CCC[C@@H]2C(=O)N[C@H](CC(C)C)C(=O)N2CCC[C@@H]2C(=O)OC1C", "strain or isolate": "H37Rv", "method": "agar", "measure": "MIC", "result": "4 µg/mL"}
{"SMILES": "C=C1C(=O)O[C@@H]2C[C@@]3(C)CCC=C(C)[C@@H]3C[C@H]12", "strain or isolate": "H37Rv", "measure": "MIC", "result": "128 µg/mL"}